Patent publication US20230234994A1, “Vasopressin-2 receptor antagonist peptides and uses thereof” (published 2023)

What was measured:
[1] = target: human vasopressin-2 receptor (human) (UniProt P30518)
[2] = target: human vasopressin-2 receptor (human) (UniProt P30518); test: cell-based or functional assay
[3] = target: human vasopressin-2 receptor (human) (UniProt P30518); test: Ki ratio to WT MQ1; 3H-AVP competition binding on V2R membranes

Substance	Ki [1] [nM]	Inhibition of cAMP production, IC50 [2] [nM]	ratio [3]
K39A peptide (peptide; modification not given)	0.57	46.1	0.115
F4G+K39A+T27D peptide (peptide; modification not given)	0.74	–	0.15
N15A+K39A+I48L peptide (peptide; modification not given)	2.05	–	0.41
MQ-LEAD (F4G + K39A + T27D + I48E) (peptide; modification not given)	0.66	9.27	0.13
K39A+I48L peptide (peptide; modification not given)	0.93	–	0.19
